Assay results reported in patent US10085445B2, “Biocorrosion inhibitor for metal” (KURARAY CO., LTD., priority 2013, dated 2018).

Test system: activated sludge
Assay: Biodegradability test (OECD 301C, JIS K 6950)
Conditions: for biodegradation ratio at 28 days (average) / biodegradation ratio at 28 days: 25° C.; for biodegradation ratio at 28 days: individual values n=2; for degradability judgement: not less than 60% = good degradable
[1] = high concentration group (100 ppm)
[2] = low concentration group (30 ppm)

O=CCCCC=O [glutaraldehyde]
biodegradation ratio at 28 days (average) [1]: 52.6%
biodegradation ratio at 28 days [1]: 52.7% and 52.5%
degradability judgement [1]: partial degradability (hardly degradable)
biodegradation ratio at 28 days (average) [2]: 78.0%
biodegradation ratio at 28 days [2]: 78.5% and 77.5%
degradability judgement [2]: good degradability

Where “and” joins values, the source holds several entries; their conditions need not be identical. Identical values can stand only once.
